Compound potency records, mixed from different reports. Data source: NIAID ChemDB in PubChem.

Shared fields: tests in culture; agent: Hepatitis C virus

Rows are shuffled and stem from different studies. ECn: concentration that inhibits the pathogen or its effect by n%. a–b is a range or a potency band.

{"smiles": "C[C@@]1(O)[C@H](O)[C@@H](CO)O[C@H]1n1cnc2c(N)nc(N)nc21", "method": "PCR", "read-out": "EC90", "cells": "Huh7", "value": "10.4 µM"}
{"smiles": "O=C(CNCC(=O)c1ccccc1)Nc1ccc(C2SC(=Nc3cccc(F)c3)N(Cc3ccco3)C2=O)cc1", "strain": "genotype 1", "method": "replicon", "read-out": "EC50", "setting": "genotype 1b", "value": "5 µM"}
{"smiles": "C/C1=C\\CC[C@@]2(C)O[C@H]2[C@H]2OC(=O)[C@@H](CN(C)C)[C@@H]2CC1", "method": "replicon", "read-out": "EC50", "cells": "Huh7", "value": "2.22 µM"}
{"smiles": "CC(C)OC(=O)[C@H](C)N[P@](=O)(OC[C@H]1O[C@@](C#N)(c2ccc3c(N)ncnn23)[C@](C)(O)[C@@H]1OC(=O)C(C)C)Oc1ccccc1", "strain": "1b Con1", "method": "luciferase", "read-out": "EC50", "cells": "Huh7 replicon", "value": "0.46 µM"}
{"smiles": "C[C@@H]1CC[C@H]2[C@@H](C)C(=O)O[C@@H]3OC4(C)CC[C@@H]1[C@]32OO4", "method": "replicon", "read-out": "EC50", "cells": "Huh7", "value": ">10 µM"}
{"smiles": "CC(C)(C)NC(=O)N[C@H](C(=O)N1C[C@H]2[C@@H]([C@H]1C(=O)NC(CC1CCC1)C(=O)C(N)=O)C2(C)C)C(C)(C)C", "strain": "GT3a", "method": "luciferase", "read-out": "EC50", "mutations": "P89L K583E", "cells": "1C", "value": "0.368 µM"}
{"smiles": "CC(=O)Nc1ccc(-c2ccc(Cl)cc2)c(COc2ccc(-c3nc4cc(C(=O)O)ccc4n3C3CCCCC3)cc2)c1", "method": "luciferase", "read-out": "EC50", "cells": "Con-1", "value": "1.624 µM"}
{"smiles": "CC[C@H]1C[C@]1(NC(=O)[C@@H]1C[C@@H]2CN1C(=O)[C@H](C(C)(C)C)NC(=O)OCC(C)(C)CCCCc1cccc3c1CN(C3)C(=O)O2)C(=O)NS(=O)(=O)C1CC1", "strain": "JCH2", "method": "antigen", "read-out": "EC50", "cells": "Huh7.5", "value": "0.05 µM"}
{"smiles": "COc1c(C)c2c(c(O)c1C/C=C(\\C)CCC(=O)O)C(=O)OC2", "method": "PCR", "read-out": "EC90", "cells": "Huh7", "value": ">100 µM"}
{"smiles": "CCC(C)[C@H](NCC(=O)c1ccccc1)C(=O)Nc1ccc(C2SC(=Nc3cccc(F)c3)N(Cc3ccco3)C2=O)cc1", "strain": "genotype 1", "method": "replicon", "read-out": "EC50", "setting": "genotype 1b", "value": "6 µM"}
{"smiles": "CCCCCCCCCCCCNc1nc(=O)c2ncn([C@@H]3C[C@H](O)[C@@H](CO)O3)c2c(=O)[nH]1", "method": "cytopathic effect", "read-out": "EC50", "cells": "HepG2.2.15", "value": ">500 µM"}
{"smiles": "C/C1=C\\CC[C@@]2(C)O[C@H]2[C@H]2OC(=O)[C@@H](CN3CCCC3)[C@@H]2CC1", "method": "replicon", "read-out": "EC50", "cells": "Huh7", "value": "2.82 µM"}
{"smiles": "C[C@@]1(O)[C@H](O)[C@@H](CO)O[C@H]1n1cnc2c(N)ncnc21", "read-out": "EC50", "setting": "24 h", "cells": "Huh7", "value": "0.25 µM"}
{"smiles": "NC(=O)c1ncn([C@@H]2O[C@H](CO)[C@@H](O)[C@H]2O)c1O", "method": "PCR", "read-out": "EC90", "cells": "Huh7", "value": ">100 µM"}
{"smiles": "CC1=CC[C@H](C(=O)N(c2cc(C#CC(C)(C)C)sc2C(=O)O)C2CCC(O)(CO[C@H]3CCOC3)CC2)CC1", "strain": "GT3a", "method": "luciferase", "read-out": "EC50", "cells": "Huh7-Lunet", "value": ">50 µM"}
{"smiles": "C/C1=C\\CC[C@@]2(C)O[C@H]2[C@H]2OC(=O)[C@@H](CSCCO)[C@@H]2CC1", "method": "replicon", "read-out": "EC50", "cells": "Huh7", "value": ">10 µM"}
{"smiles": "C[C@@]1(O)[C@H](O)[C@@H](CO)O[C@H]1c1ccc2c(N)ncnn12", "strain": "GT-1b Con1", "method": "luciferase", "read-out": "EC50", "cells": "Huh7", "value": "1.6 µM"}
{"smiles": "Nc1nc(=O)c2ncn(COCCOCc3ccccc3)c2c(=O)[nH]1", "method": "cytopathic effect", "read-out": "EC50", "cells": "HepG2.2.15", "value": "10–15 µM"}
{"smiles": "CN(C)CCN1C(=O)Cn2c(c(C3CCCCC3)c3sc(C(=O)O)cc32)-c2ccccc21", "read-out": "EC50", "cells": "Huh7", "value": "0.7 µM"}
{"smiles": "CC1(O)C(O)C(CO)OC1n1cnc2c(N)ncnc21", "strain": "GT3a", "method": "luciferase", "read-out": "EC50", "mutations": "P89L K583E", "cells": "1C", "value": "0.025 µM"}
{"smiles": "O=C1C(=O)c2ccccc2C(O)=C1CC=C(Cl)Cl", "method": "PCR", "read-out": "EC90", "cells": "Huh7", "value": ">100 µM"}
{"smiles": "COCn1c(-c2ccccc2)c(C2CCCCC2)c2sc(C(=O)O)cc21", "read-out": "EC50", "cells": "Huh7", "value": "5.9 µM"}
{"smiles": "O=C1NNC(=O)c2[nH]cnc2N1", "method": "cytopathic effect", "read-out": "EC50", "cells": "HepG2.2.15", "value": ">500 µM"}
{"smiles": "CNC(=O)c1c(-c2ccc(F)cc2)oc2cc(N(CCO)S(C)(=O)=O)c(C3CC3)cc12", "strain": "GT3a", "method": "luciferase", "read-out": "EC50", "mutations": "P89L K583E", "cells": "1C", "value": "0.0039 µM"}
{"smiles": "CCC[C@H](NC(=O)[C@@H]1[C@H]2CCC[C@H]2CN1C(=O)[C@@H](NC(=O)[C@@H](NC(=O)c1cnccn1)C1CCCCC1)C(C)(C)C)C(=O)C(=O)NC1CC1", "strain": "1b D168V", "method": "luciferase", "read-out": "EC50", "value": "0.137 µM"}
{"smiles": "CC1=CC[C@H](C(=O)N(c2cc(C#CC(C)(C)C)sc2C(=O)O)C2CCC(O)(CO[C@H]3CCOC3)CC2)CC1", "strain": "GT1b", "method": "luciferase", "read-out": "EC50", "cells": "1C", "value": "0.0035 µM"}
{"smiles": "CN(C)CCN1CCn2c(c(C3CCCCC3)c3sc(C(=O)O)cc32)-c2ccccc21", "read-out": "EC50", "cells": "Huh7", "value": "0.21 µM"}
{"smiles": "C[C@@]1(O)[C@H](O)[C@@H](CO)O[C@H]1n1cnc2c(N)ncnc21", "strain": "3a S52", "method": "luciferase", "read-out": "EC50", "cells": "Huh7 replicon", "value": "0.091 µM"}
{"smiles": "CC1CCC(C(=O)N(c2cc(C#CC(C)(C)C)sc2C(=O)O)C2CCC(O)CC2)CC1", "strain": "GT3a", "method": "luciferase", "read-out": "EC50", "cells": "Huh7-Lunet", "value": ">50 µM"}
{"smiles": "C[C@@]1(O)[C@H](O)[C@@H](CO)O[C@H]1n1cnc2c(N)ncnc21", "strain": "5a", "method": "luciferase", "read-out": "EC50", "cells": "Huh7", "value": "0.1309 µM"}
{"smiles": "C[C@@H]1C(=O)O[C@H]2[C@H]1CC[C@@]1(C)C=CC(=O)[C@@]3(C)O[C@@]213", "method": "replicon", "read-out": "EC50", "cells": "Huh7", "value": ">10 µM"}
{"smiles": "CC[C@H](C)C(=O)O[C@H]1CC=CC2C=C[C@H](C)[C@H](CC[C@@H]3C[C@@H](O)CC(=O)O3)[C@H]21", "method": "luciferase / replicon", "read-out": "EC50", "cells": "Huh 9-13", "value": "2.2 µM"}
{"smiles": "CN(Cc1ccccc1)Cc1c(C(=O)O)sc2c(C3CCCCC3)c(-c3ccccc3)[nH]c12", "read-out": "EC50", "cells": "Huh7", "value": "3.4 µM"}
{"smiles": "CC1CCC(C(=O)N(c2cc(C#CC(C)(C)C)sc2C(=O)O)C2CCC(O)CC2)CC1", "strain": "GT3a", "method": "luciferase / replicon", "read-out": "EC50", "cells": "Huh7.5", "value": "12.03 µM"}
{"smiles": "Nc1ccn([C@@H]2C=C(CO)[C@@H](O)[C@H]2O)c(=O)n1", "method": "PCR", "read-out": "EC90", "cells": "Huh7", "value": "2.5 µM"}
{"smiles": "Fc1ccccc1-c1nc2ccn(Cc3ccc(-c4ccc(C(F)(F)F)cc4C(F)(F)F)nn3)cc-2n1", "strain": "GT3a", "method": "luciferase / replicon", "read-out": "EC50", "cells": "Huh7.5", "value": "2.629 µM"}
{"smiles": "CCCCCCCCCCCCNc1nc(=O)c2ncn([C@H]3C[C@H](O)[C@@H](CO)O3)c2c(=O)[nH]1", "method": "cytopathic effect", "read-out": "EC50", "cells": "HepG2.2.15", "value": ">500 µM"}
{"smiles": "CN(Cc1cnc2nc(N)nc(N)c2n1)c1ccc(C(=O)N[C@@H](CCC(=O)O)C(=O)O)cc1", "method": "PCR", "read-out": "EC90", "cells": "Huh7", "value": ">100 µM"}
{"smiles": "CCC[C@H](NC(=O)[C@@H]1[C@H]2CCC[C@H]2CN1C(=O)[C@@H](NC(=O)[C@@H](NC(=O)c1cnccn1)C1CCCCC1)C(C)(C)C)C(=O)C(=O)NC1CC1", "strain": "genotype 1b", "method": "luciferase / reporter gene", "read-out": "EC90", "cells": "Huh7.5", "value": "0.9119 µM"}
{"smiles": "COc1ccc2c(O[C@@H]3C[C@H]4C(=O)N[C@]5(C(=O)O)C[C@H]5/C=C\\CCCCC[C@H](NC(=O)OC5CCCC5)C(=O)N4C3)cc(-c3csc(NC(C)C)n3)nc2c1", "strain": "GT1b", "method": "luciferase", "read-out": "EC50", "cells": "1C", "value": "0.00091 µM"}
{"smiles": "CS(=O)(=O)Nc1ccc2c(c1)S(=O)(=O)N=C(C1=C(O)[C@@H]3[C@H]4CC[C@H](C4)[C@@H]3N(Cc3ccc(F)cc3)C1=O)N2", "strain": "GT1b", "method": "luciferase / replicon", "read-out": "EC50", "cells": "Huh7", "value": "0.0081 µM"}
{"smiles": "NC(=O)c1ncn([C@@H]2O[C@H](CO)[C@@H](O)[C@H]2O)n1", "method": "PCR", "read-out": "EC90", "cells": "Huh7", "value": "100 µM"}
{"smiles": "CC(C)(C)OC(=O)N[C@@H]1CCCCC/C=C\\[C@@H]2C[C@@]2(C(=O)NS(=O)(=O)C2CC2)NC(=O)[C@@H]2C[C@@H](OC(=O)N3Cc4cccc(F)c4C3)CN2C1=O", "strain": "JCH2", "method": "antigen", "read-out": "EC50", "cells": "Huh7.5", "value": "0.097 µM"}
{"smiles": "CCC[C@H](NC(=O)[C@@H]1[C@H]2CCC[C@H]2CN1C(=O)[C@@H](NC(=O)[C@@H](NC(=O)c1cnccn1)C1CCCCC1)C(C)(C)C)C(=O)C(=O)NC1CC1", "strain": "GT1b", "method": "luciferase", "read-out": "EC50", "cells": "1C", "value": "0.429 µM"}
{"smiles": "COC(=O)N[C@H](C(=O)N1CCC[C@H]1c1ncc(-c2ccc(-c3ccc(-c4cnc([C@@H]5CCCN5C(=O)[C@@H](NC(=O)OC)C(C)C)[nH]4)cc3)cc2)[nH]1)C(C)C", "strain": "Con1", "method": "luciferase", "read-out": "EC50", "cells": "1C", "value": "0.0000029 µM"}

The last 5 rows once more:

CS(=O)(=O)Nc1ccc2c(c1)S(=O)(=O)N=C(C1=C(O)[C@@H]3[C@H]4CC[C@H](C4)[C@@H]3N(Cc3ccc(F)cc3)C1=O)N2 ; strain: GT1b ; method: luciferase / replicon ; read-out: EC50 ; cells: Huh7 ; value: 0.0081 µM
NC(=O)c1ncn([C@@H]2O[C@H](CO)[C@@H](O)[C@H]2O)n1 ; method: PCR ; read-out: EC90 ; cells: Huh7 ; value: 100 µM
CC(C)(C)OC(=O)N[C@@H]1CCCCC/C=C\[C@@H]2C[C@@]2(C(=O)NS(=O)(=O)C2CC2)NC(=O)[C@@H]2C[C@@H](OC(=O)N3Cc4cccc(F)c4C3)CN2C1=O ; strain: JCH2 ; method: antigen ; read-out: EC50 ; cells: Huh7.5 ; value: 0.097 µM
CCC[C@H](NC(=O)[C@@H]1[C@H]2CCC[C@H]2CN1C(=O)[C@@H](NC(=O)[C@@H](NC(=O)c1cnccn1)C1CCCCC1)C(C)(C)C)C(=O)C(=O)NC1CC1 ; strain: GT1b ; method: luciferase ; read-out: EC50 ; cells: 1C ; value: 0.429 µM
COC(=O)N[C@H](C(=O)N1CCC[C@H]1c1ncc(-c2ccc(-c3ccc(-c4cnc([C@@H]5CCCN5C(=O)[C@@H](NC(=O)OC)C(C)C)[nH]4)cc3)cc2)[nH]1)C(C)C ; strain: Con1 ; method: luciferase ; read-out: EC50 ; cells: 1C ; value: 0.0000029 µM